Anti-infective test results gathered from many reports (values: NIAID ChemDB through PubChem).

All rows: tests in culture; organism: Mycobacterium tuberculosis

Blank or dashed fields: not listed here.

SMILES,strain,changes,cells,read by,read-out,dose,result
O=[N+]([O-])c1ccc(/C(=C\c2ccc(-c3ccccc3)o2)S(=O)(=O)c2ccccc2)o1,H37Rv,-,-,BACTEC,MIC bound,-,>12.5 µg/mL
CC(C)Oc1cc2c[n+](C)c3c4cc5c(cc4ccc3c2cc1O)OCO5,H37Rv,-,-,BACTEC,inhibition,12.5 µg/mL,93%
O=C(Cc1csc2nc(-c3ccc(Br)cc3)cn12)N/N=C1\SCC(=O)N1c1ccc([N+](=O)[O-])cc1,H37Rv,-,-,-,MIC,-,>6.25 µg/mL
O=C(c1ccc(-c2ccccc2)cc1)C(Cl)Cl,H37Rv,-,-,-,MIC,-,6.25 µg/mL
O=C(N=C1C=CC(=NC(=O)OCc2ccccc2)C=C1)OCc1ccccc1,H37Rv,-,-,BACTEC,MIC bound,-,>12.5 µg/mL
O=C(CCl)c1ccc(S(=O)c2ccccc2)cc1,H37Rv,-,-,-,MIC,-,25 µg/mL
O=C(Cl)N1CCN(c2ccccc2)C1=O,H37Rv,-,-,BACTEC,inhibition,12.5 µg/mL,0%
CC(c1ccc(C(=O)CCl)cc1)c1ccc(C(=O)CCl)cc1,H37Rv,-,-,-,MIC,-,12.5 µg/mL
Cc1cccc2c1N=C(c1ccccc1)C2CN1CCC(NS(C)(=O)=O)C1,-,-,-,-,MIC,-,3.3–6.2 µM
C=C1C(=O)OC2C1C(OC(=O)/C(=C/C)COC(C)=O)CC1(CO1)C1C(OC(=O)/C(=C/C)CO)C=C(C)C21,H37Rv,-,-,BACTEC,MIC,-,≥12.8 µg/mL
NC1[C@H]2CN(c3nc4c(cc3F)c(=O)c(C(=O)O)cn4-c3ccc(F)cc3F)C[C@@H]12,37 strains (drug-resistant),-,-,-,MIC50,-,>4 µg/mL
O=C(c1ccc(Oc2ccc(Cl)cc2)cc1)C(Cl)Cl,H37Rv,-,-,-,MIC,-,12.5 µg/mL
FC(F)(F)c1ccccc1Nc1nc(-c2ccc3ccccc3c2)cs1,H37Rv,-,-,visual reading,MIC,-,>20 µM
O=S(=O)(c1ccc(-n2cccn2)cc1)N1CCN(Cc2ccncc2)CC1,-,-,-,-,MIC,-,12.5 µM
O=c1oc2ccc([N+](=O)[O-])cc2c(=O)n1-c1ccccc1,CNCTC MY331/88,-,-,-,MIC,-,62 µM
NC(=S)c1cc(SCc2cccc3ccccc23)ccn1,My 331/88,-,-,-,MIC,-,2 µM
CCOC(=O)Nc1cc2c(c(/N=C/N(C)C)n1)N=C(c1ccccc1)CO2,H37Rv,-,-,-,EC50,-,>12.5 µg/mL
NC(=O)C(=CNC(=S)N=Nc1c(O)[nH]c2ccccc12)C(N)=O,H37Rv,-,-,BACTEC,MIC bound,-,>6.25 µg/mL
O=S(=O)(NC1CCN(Cc2ccncc2)CC1)c1ccc(-n2cccn2)cc1,Clinical isolate,-,-,-,MIC,-,0.8–3.1 µM
O=C1NC(Nc2ccc(Cl)cc2)=N/C1=C\c1ccccc1Cl,H37Rv,-,-,-,EC50,-,<12.5 µg/mL
CC1COc2c(N3CCN(C)CC3)c(F)cc3c(=O)c(C(=O)O)cn1c23,469 (streptomycin isoniazid rifampicin-resistant),-,-,-,MIC,-,4 µg/mL
O=C(N/N=C(\c1nc2ccc([N+](=O)[O-])cc2[nH]c1=O)C(O)c1ccc([N+](=O)[O-])cc1)c1ccncc1,H37Rv,KatG *741R,-,visual reading / absorbance,MIC,-,50 µM
OCC(O)COCCCCCCCCCCCC1C=CCC1,H37Rv,-,-,BACTEC,MIC bound,-,≤12.5 µg/mL
c1ccc(CSc2ncn[nH]2)nc1,My 331/88,-,-,-,MIC,-,1000 µM
CN[C@@H]1[C@H](O[C@H]2[C@H](O[C@H]3[C@H](O)[C@@H](O)[C@H](N=C(N)N)[C@@H](O)[C@@H]3N=C(N)N)O[C@@H](C)[C@]2(O)C=O)O[C@@H](CO)[C@H](O)[C@H]1O,TN4728 (BN),-,-,-,MIC,-,>2 µg/mL
O=C(N/N=C/c1ccc(O)cc1)c1cc(-c2ccc(F)cc2F)ccc1O,H37Rv,-,-,resazurin,inhibition,6.25 µg/mL,17%
c1cc(CSc2ncn[nH]2)ccn1,My 331/88,-,-,-,MIC,-,>1000 µM
c1cc2c(cc1C1OCC3C(c4ccc5c(c4)OCO5)OCC13)OCO2,H37Rv,-,-,BACTEC,MIC bound,-,>12.5 µg/mL
NCC[C@H](O)C(=O)N[C@@H]1C[C@H](N)[C@@H](O[C@H]2O[C@H](CN)[C@@H](O)[C@H](O)[C@H]2O)[C@H](O)[C@H]1O[C@H]1O[C@H](CO)[C@@H](O)[C@H](N)[C@H]1O,Isolate CKN64-302 (rrs A1401G mutation),-,-,-,MIC,-,>64 µg/mL
Cc1nc(C(=O)O)c(=O)[nH]c1C,H37Rv,-,-,BACTEC,inhibition,12.5 µg/mL,0%
CCOC(=O)c1ccc(-n2c(=O)oc3ccc(OC)cc3c2=O)cc1,CNCTC MY331/88,-,-,-,MIC,-,32 µM
O=C1NC(NNC(=O)c2ccncc2)=N/C1=C\c1ccccc1Cl,Isoniazid-resistant,-,-,-,MBC,-,>100 µg/mL
COc1cccc2c1C(=O)c1c(O)c3c(c(O)c1C2=O)C[C@@](O)(/C(C)=N/NC(=O)CO)CC3OC1CC(N)C(O)C(C)O1.Cl,PAS-R,-,-,-,MIC,-,3.1 µg/mL
COc1ccc(/C=N/NC(=O)c2cc(-c3ccc(F)cc3F)ccc2O)cc1,H37Rv,-,-,resazurin,inhibition,6.25 µg/mL,15%
N#Cc1cc(SCc2cccnc2)ccn1,My 331/88,-,-,-,MIC,-,1000 µM
O=C1N(CO)CCN1CO,H37Rv,-,-,BACTEC,MIC bound,-,>12.5 µg/mL
COc1cc2c(c[n+](C)c3c4cc5c(cc4ccc23)OCO5)c(OC)c1OC,H37Rv,-,-,BACTEC,inhibition,12.5 µg/mL,89%
O=C(CCl)c1ccc(Oc2ccccc2)cc1,H37Rv,-,-,-,MIC,-,25 µg/mL
NC(=S)c1cc(SCc2ccncc2)ccn1,My 331/88,-,-,-,MIC,-,8 µM
Cc1ccc2c(=O)n(-c3ccccc3)c(=O)oc2c1,CNCTC MY331/88,-,-,-,MIC,-,31 µM
NNC(=O)c1ccncc1,Pan-susceptible clinical isolate 6,-,-,-,MIC,-,0.06 µg/mL
CCOC(=O)Nc1cc2[nH]c(-c3ccc(C(F)(F)F)cc3)nc2c(N(CCc2ccccc2)Cc2ccccc2)n1,H37Rv,-,-,-,EC50,-,<12.5 µg/mL
O=C(N/N=C/c1ccccc1)c1cc(-c2ccc(F)cc2F)ccc1O,H37Rv,-,-,BACTEC,inhibition,6.25 µg/mL,0%
Cc1coc(NS(=O)(=O)c2ccc(N=Nc3c(N)nc(N)nc3N)cc2)c1C,H37Rv,-,-,BACTEC,MIC bound,-,>12.5 µg/mL
C=CCN1C(=O)CS/C1=N\NC(=O)Cc1csc2nc(-c3ccc(Br)cc3)cn12,H37Rv,-,-,-,inhibition,6.25 µg/mL,0%
O=C(c1ccc(Oc2ccccc2)cc1)C(Cl)Cl,H37Rv,-,-,-,MIC,-,6.25 µg/mL
COc1cc2c(ccc3c4cc(OC)c(OC)cc4c[n+](C)c23)cc1O,H37Rv,-,-,BACTEC,MIC,-,>12.5 µg/mL
O=C1NC(Nc2cccc(Cl)c2)=N/C1=C\c1ccccc1Cl,H37Rv,-,-,-,inhibition,12.5 µg/mL,91%
CCOC(=O)Nc1cc(N[C@@H](C)[C@H](O)c2ccccc2)c(N)c(N)n1,H37Rv,-,VERO,-,EC50,-,<12.5 µg/mL
FC(F)(F)c1ccccc1Nc1nc(-c2ccccc2S)cs1,H37Rv,-,-,visual reading,MIC,-,>20 µM
c1ccc2c(CSc3nc4ccccc4[nH]3)cccc2c1,My 331/88,-,-,-,MIC,-,32 µM
COC1OC2COC(c3ccccc3)OC2C(O)C1N,H37Rv,-,-,BACTEC,MIC bound,-,>6.25 µg/mL
Cc1ccc2nc(SCc3cccnc3)[nH]c2c1,My 331/88,-,-,-,MIC,-,250 µM
CNC(=S)NNC(=O)Cc1csc2nc(-c3ccc(Br)cc3)cn12,H37Rv,-,-,-,inhibition,6.25 µg/mL,29%
NC(N)=NNC(=S)S,H37Rv,-,-,BACTEC,MIC,-,16 µg/mL
Fc1cccc(F)c1Nc1nc(-c2ccccn2)cs1,H37Rv,-,-,visual reading,MIC,-,2.1 µM
CO[C@H]1/C=C/O[C@@]2(C)Oc3c(C)c(O)c4c(O)c(c(/C=N/N5CCN(C)CC5)c(O)c4c3C2=O)NC(=O)/C(C)=C\C=C\[C@H](C)[C@H](O)[C@@H](C)[C@@H](O)[C@@H](C)[C@H](OC(C)=O)[C@@H]1C,H37Rv,-,-,-,MIC,-,0.01 µM
NNC(=O)c1ccncc1,H37Rv,KatG G285V,-,visual reading / absorbance,MIC,-,0.1 µM
CCOC(=O)Nc1cc(NCc2ccc(S(N)(=O)=O)cc2)c2nccnc2n1,H37Rv,-,-,-,inhibition,12.5 µg/mL,0%
Cc1ccc(/C(O)=C/c2nc3c(nc2NC24CC5CC(CC(C5)C2)C4)c(=O)oc2ccccc23)cc1,H37Rv,-,-,BACTEC,MIC bound,-,>12.5 µg/mL
COCCN(C1CCN(CC2C(c3ccccc3)=[N+](C)c3c(C)cccc32)C1)S(C)(=O)=O,-,-,-,-,MIC,-,1.5 µM
COc1cc2c(cc1O)c[n+](C)c1c3cc4c(cc3ccc21)OCO4,H37Rv,-,-,BACTEC,MIC,-,>12.5 µg/mL
S=C(NCCNC(=S)[S][Sn]([c]1ccccc1)([c]1ccccc1)[c]1ccccc1)[S][Sn]([c]1ccccc1)([c]1ccccc1)[c]1ccccc1,INH-r,-,-,-,MIC,-,0.4 µg/mL
Sc1ccccc1-c1csc(Nc2ccccn2)n1,H37Rv,-,-,visual reading,MIC,-,>20 µM
CCCCNC(=S)NNC(=O)Cc1csc2nc(-c3ccc(Br)cc3)cn12,H37Rv,-,-,-,MIC,-,>6.25 µg/mL
c1ccc(Nc2nc(-c3ccccn3)cs2)nc1,H37Rv,-,-,visual reading,MIC,-,0.8 µM
Cc1ccc2nc(SCc3cccc4ccccc34)[nH]c2c1,My 331/88,-,-,-,MIC,-,32 µM
CC1=c2c(oc3cc(O)c(Nc4c(C)cc(O)cc4O)c(C)c23)=CC(=O)C1=Nc1c(C)cc(O)cc1O,H37Rv,-,-,BACTEC,MIC bound,-,>12.5 µg/mL
Cc1cc(C)c(/C=N/NC(=O)c2cc(-c3ccc(F)cc3F)ccc2O)c(C)c1,H37Rv,-,-,resazurin,MIC,-,>6.25 µg/mL
O=c1oc2cc(Cl)ccc2c(=O)n1-c1ccc(Cl)c(Cl)c1,CNCTC MY331/88,-,-,-,MIC,-,4 µM
Cc1ccc(-c2cnnc(N3CCC(c4cccc(F)c4)C3)n2)o1,H37Rv,-,-,resazurin,MIC,-,38.9 µM
CCCCC(=O)N/N=C/c1cc2c(cc1[N+](=O)[O-])OCO2.NN1CCOCC1,H37Rv,-,-,BACTEC,MIC bound,-,>12.5 µg/mL
O=C(CCl)c1ccc(CCc2ccccc2)cc1,H37Rv,-,-,-,MIC,-,50 µg/mL
C=CCCNC(=S)[S-].[Na+],H37Rv,-,-,BACTEC,MIC,-,32 µg/mL
C=CCNc1nc(NC(=O)OCC)cc(NC(=O)OCC)c1[N+](=O)[O-],H37Rv,-,-,-,EC50,-,>12.5 µg/mL
O=C1NC(NNC(=O)c2ccncc2)=N/C1=C\c1ccc(Cl)cc1,ATCC 35838 (rifampin-resistant),-,-,-,MIC,-,6.25 µg/mL
C=C(C)C1CC=C(C)/C(=N/NC(=O)c2cccnc2)C1,H37Rv,KatG *741R,-,visual reading / absorbance,MIC,-,50 µM
CC[C@H]1OC(=O)[C@H](C)[C@@H](O[C@H]2C[C@@](C)(OC)[C@@H](O)[C@H](C)O2)[C@H](C)[C@@H](O[C@@H]2O[C@H](C)C[C@H](N(C)C)[C@H]2O)[C@](C)(OC)C[C@@H](C)C(=O)[C@H](C)[C@@H](O)[C@]1(C)O,Kurono,-,-,-,MBC,-,>128 µg/mL
CCOC(=O)Nc1cc(Cl)c([N+](=O)[O-])c(N)n1,H37Rv,-,-,-,EC50,-,>12.5 µg/mL
C[C@H]1COc2c(N3CCN(C)CC3)c(F)cc3c(=O)c(C(=O)O)cn1c23,82 strains,-,-,-,MIC90,-,1 µg/mL
Cc1ccc(NC(=S)NNC(=O)Cc2csc3nc(-c4ccc(Br)cc4)cn23)cc1,H37Rv,-,-,-,inhibition,6.25 µg/mL,1%
COc1ccc(-c2oc3cc(O)cc(O)c3c(=O)c2OC)cc1,H37Rv,-,-,BACTEC,inhibition,100 µg/mL,98%
COc1cc2c(=O)n(C)c3ccccc3c2cc1OC,H37Rv,-,-,BACTEC,inhibition,12.5 µg/mL,23%
O=C(N/N=C/c1cccc(F)c1)c1cc(-c2ccc(F)cc2F)ccc1O,H37Rv,-,-,resazurin,MIC,-,>6.25 µg/mL
O=c1[nH][nH]c2ncccc12,H37Rv,-,-,BACTEC,inhibition,12.5 µg/mL,33%
O=C1NC(NNC(=O)c2ccncc2)=N/C1=C\c1cccc(Cl)c1,Erdman,-,-,-,MIC,-,0.78 µg/mL

A second listing of 5 rows from above:

SMILES,strain,changes,cells,read by,read-out,dose,result
NC(=S)c1cc(SCc2ccncc2)ccn1,My 331/88,-,-,-,MIC,-,8 µM
O=C(c1ccc(Oc2ccc(Cl)cc2)cc1)C(Cl)Cl,H37Rv,-,-,-,MIC,-,12.5 µg/mL
O=C(c1ccc(-c2ccccc2)cc1)C(Cl)Cl,H37Rv,-,-,-,MIC,-,6.25 µg/mL
O=C(CCl)c1ccc(CCc2ccccc2)cc1,H37Rv,-,-,-,MIC,-,50 µg/mL
CCCCC(=O)N/N=C/c1cc2c(cc1[N+](=O)[O-])OCO2.NN1CCOCC1,H37Rv,-,-,BACTEC,MIC bound,-,>12.5 µg/mL

Neighbouring rows are from separate reports. A number after MIC or MFC names an inhibition level or a share of isolates. ECn is the concentration giving n% inhibition of infection, replication or growth. MIC bound: limit read from a one-dose screen. Two numbers with a dash give a range or band. Inhibition is in % at the dose shown (toxicity tests: loss of growth or viability).